Compound potency records, mixed from different reports. Data source: NIAID ChemDB in PubChem.

Common to all: enzyme or target tests; agent: HIV-1; target: Protease; endpoint: inhibition

Inhibition is in % at the dose shown (toxicity tests: loss of growth or viability). An empty or dashed field is not shown. Conditions beyond the fields shown may differ between rows.

SMILES,strain,method,dose,result
Cc1ccccc1-n1nnc(C(c2ccccc2)(c2ccccc2)n2ccnc2)c1C,,substrate cleavage / fluorescence,10 µg/mL,22.1%
COc1cc(O)c2c(=O)c(O)c(-c3ccc(O)c(O)c3)oc2c1,,fluorescence,50 µg/mL,41.6%
Cc1c(F)cccc1NS(=O)(=O)c1ccc2c(c1)CCC(=O)N2,,,150 µM,28.04%
CC(C)C[C@H](NC(=O)OCc1ccccc1)C(=O)N[C@@H](Cc1ccccc1)C(O)[C@H](Cc1ccccc1)NC(=O)[C@H](CC(C)C)NC(=O)OCc1ccccc1,,fluorescence,0.1 µM,15%
O=c1cc(-c2ccc(O)c(-c3c(O)cc(O)c4c(=O)cc(-c5ccc(O)cc5)oc34)c2)oc2cc(O)cc(O)c12,,FRET,100 µg/mL,90%
O=c1cc(-c2ccc(O)c(O)c2)oc2cc(O)cc(O)c12,,fluorescence,50 µg/mL,67.8%
CC(C)[C@H](NC(=O)OCCN1CCOCC1)C(=O)N[C@@H](Cc1ccccc1)[C@H](O)[C@H](O)[C@H](Cc1ccccc1)NC(=O)[C@@H](NC(=O)OCCN1CCOCC1)C(C)C,,fluorescence,0.01 µM,33%
COc1ccc(NS(=O)(=O)c2ccc3c(c2)NC(=O)CC(=O)N3)c(OC)c1,,,150 µM,37.94%
O=C1N(Cc2ccc(O)cc2)[C@H](Cc2ccccc2)[C@H](O)CN(Cc2ccccc2)N1Cc1ccc(O)cc1,,fluorescence,0.0005 µM,58%
CC(C)[C@H](NC(=O)OCc1ccccn1)C(=O)NC(Cc1ccccc1)C(O)C(F)(F)C(N)Cc1ccccc1,,fluorescence,0.1 µM,47%
CSCC[C@H](NC(=O)[C@H](C)NC(=O)[C@H](CCC(=O)O)NC(=O)[C@H](C)N)C(=O)N[C@@H](CO)C(=O)N[C@@H](CCC(N)=O)C(=O)N[C@H](C(=O)O)C(C)C,BH10,HPLC,100 µM,<1%
CC(C)C(NC(=O)[C@@H](NC(=O)OCc1ccccc1)C(C)C)C(F)(F)C(O)C(CC1CCCCC1)NC(=O)[C@@H](NC(=O)OCc1ccccc1)C(C)C,,fluorescence,0.0025 µM,59%
COc1cc(CN2C(=O)N(Cc3ccc(O)c(OC)c3)N(Cc3ccccc3)C[C@@H](O)[C@H]2Cc2ccccc2)ccc1O,,fluorescence,0.0005 µM,81%
CC[C@H](C)[C@H](NC(=O)[C@H](CCC(N)=O)NC(=O)CCCOc1ccc2ccc(OCCCC(=O)N[C@H](C(=O)N[C@@H](CC(C)C)C(=O)N[C@H](C(=O)OC)C(C)C)C(C)C)nc2c1)C(=O)N[C@H](C(N)=O)[C@@H](C)O,,fluorescence,5.7 µM,30%
CC(C)[C@H](NC(=O)OCc1ccccn1)C(=O)N[C@@H](Cc1ccccc1)[C@H](O)[C@H](O)[C@H](Cc1ccccc1)NC(=O)OC(C)(C)C,,fluorescence,0.005 µM,67%
O=C1C[C@@H](c2ccc(O)cc2)Oc2cc(O)cc(O)c21,,FRET,100 µg/mL,13.1%
CC(C)[C@H](NC(=O)OCc1ccccc1)C(=O)N[C@@H](Cc1ccccc1)[C@H](O)[C@H](Cc1ccccc1)NC(=O)[C@@H](NC(=O)OCc1ccncc1)C(C)C,,fluorescence,0.005 µM,47%
CC(C)(C)NC(=O)[C@@H]1CSCN1C(=O)[C@@H](O)[C@H](Cc1ccccc1)NC(=O)CC(C)(C)C(=O)O,,,19.7 µM,0.05%
O=C(/C=C/c1ccc(O)c(O)c1)c1ccc(O)cc1O,,HPLC,50 µg/mL,46.9%
CC(C)[C@H](NC(=O)OCCN1CCOCC1)C(=O)N[C@@H](Cc1ccccc1)[C@@H](O)[C@H](Cc1ccccc1)NC(=O)[C@@H](NC(=O)OCc1ccccc1)C(C)C,,fluorescence,0.005 µM,40%
O=C1N(Cc2cccc(Br)c2)[C@H]2[C@H](CS(=O)(=O)[C@H]2CCCCCO)N1Cc1cccc(Br)c1,,,80 µM,90%
O=C(CCc1ccc(O)cc1)c1c(O)cc(O)cc1O,,fluorescence,50 µg/mL,26.8%
O=c1c2c(nc3nc(COc4ccccc4)[nH]n13)CCC2,,,150 µM,42.23%
CC[C@H](C)C(O)C(C)(O)/C=C/C1=CC2=CC(=O)[C@](C)(O)[C@H](O)[C@H]2CO1,,,100 µg/mL,0%
CC(C)[C@H](NC(=O)OCc1ccccc1)C(=O)N[C@@H](Cc1ccccc1)[C@H](O)[C@H](O)[C@H](Cc1ccccc1)NC(=O)[C@@H](NC(=O)OCc1ccccc1)C(C)C,,fluorescence,0.001 µM,56%
Cc1cc(CN2C(=O)N(Cc3ccc(O)c(C)c3)N(Cc3ccccc3)C[C@@H](O)[C@H]2Cc2ccccc2)ccc1O,,fluorescence,0.0005 µM,61.4%
CC(C)[C@H](NC(=O)N(C)Cc1ccccn1)C(=O)N[C@@H](Cc1ccccc1)[C@H](O)[C@H](O)[C@H](Cc1ccccc1)NC(=O)[C@@H](NC(=O)N(C)Cc1ccccn1)C(C)C,,fluorescence,0.001 µM,62%
O=c1c(O)c(-c2ccc(O)c(O)c2)oc2c(O[C@@H]3O[C@H](CO)[C@@H](O)[C@H](O)[C@H]3O)c(O)cc(O)c12,,HPLC,50 µg/mL,26.5%
O=c1cc(-c2ccc(O)cc2)oc2cc(O)c(O)c(O)c12,,FRET,100 µg/mL,71.7%
CC(C)[C@H](NC(=O)OCc1ccncc1)C(=O)N[C@@H](Cc1ccccc1)[C@H](O)[C@@H](O)[C@H](Cc1ccccc1)NC(=O)[C@@H](NC(=O)OCc1ccncc1)C(C)C,,fluorescence,0.002 µM,44%
Cc1cc(=O)n2[nH]c(N3C(=O)[C@H]4CCCC[C@H]4C3=O)nc2n1,,,150 µM,32.51%
COc1ccc(CN2C[C@@H](O)[C@@H](Cc3ccccc3)N(Cc3cccc(N)c3)C(=O)N2Cc2cccc(N)c2)cc1,,fluorescence,0.0005 µM,70.7%
O=c1cc(-c2ccc(O)cc2)oc2cc(O)c(O)c(O)c12,,fluorescence,50 µg/mL,73.4%
O=C1[C@H]2CCCC[C@H]2C(=O)N1c1ccc2[nH]c(=S)sc2c1,,,150 µM,48.1%

The first 2 rows once more:

Cc1ccccc1-n1nnc(C(c2ccccc2)(c2ccccc2)n2ccnc2)c1C ; method: substrate cleavage / fluorescence ; dose: 10 µg/mL ; result: 22.1%
COc1cc(O)c2c(=O)c(O)c(-c3ccc(O)c(O)c3)oc2c1 ; method: fluorescence ; dose: 50 µg/mL ; result: 41.6%